Pooled drug test results. Numbers come from NIAID ChemDB, via PubChem.

Shared fields: tests in culture; agent: Mycobacterium tuberculosis

Neighbouring rows are from separate reports. ECn is the concentration giving n% inhibition of infection, replication or growth. MIC50, MIC90 and the like: level of inhibition, or share of isolates inhibited. Blank or dashed fields: not listed here. MIC bound: limit read from a one-dose screen. Inhibition is in % at the dose shown (toxicity tests: loss of growth or viability).

structure,cell line,endpoint,method,strain,dose,value
CCc1cc(C(N)=S)ccn1,-,MIC,-,pMV261 ETH-resistant,-,30 µg/mL
O=C1C(c2[nH]c3ccccc3c2O)=Nc2ccccc21,-,MIC90,resazurin,H37Rv,-,27 µg/mL
CCCCCCCCS(=O)(=O)CC(N)=O,-,MIC,-,6T2709,-,≤6.25 µg/mL
O=C(O)c1cccc2ccccc12,-,MBC,-,H37Ra,-,400 µg/mL
C/C=C/c1ccc2oc(-c3ccc(OC)c(OC)c3)c(C)c2c1,-,MIC,resazurin / absorbance,Clinical isolate 13 638,-,3.9 µg/mL
COc1ccc(-n2c(=O)oc3c(Br)cc(Br)cc3c2=O)cc1,-,MIC,-,CNCTC MY331/88,-,63.1 µM
Cc1c(CN2CCSCC2)cc(-c2ccccc2)n1-c1cccc2ccccc12,-,MIC,-,-,-,>16 µg/mL
CC1=CC(=O)c2ccccc2C1=O,-,MIC,broth dilution,H37Ra ATCC 25177,-,8 µg/mL
CC1=CC[C@]2(C)CC[C@]3(C)C(=O)C=C(C(C)C)[C@@H]3[C@H]2CC1,-,inhibition,resazurin,H37Rv,6.25 µg/mL,25%
COc1ccc(C(=O)Nc2cccc(F)c2)c(O)c1,-,MIC,-,CNCTC MY331/88,-,8 µM
Cc1c(CN2CCN(C)CC2)cc(-c2ccccc2F)n1-c1cccc2ccccc12,-,MIC,-,-,-,4 µg/mL
COc1ccc(OC)c(-c2cc(=O)c3c(OC)c(OC)c(OC)c(OC)c3o2)c1,-,inhibition,BACTEC,H37Rv,12.5 µg/mL,-6%
CCCCCCCCCCCCCCNCCO,-,MIC,-,H37Rv,-,12.5 µg/mL
CC1COc2c(N3CCN(C)CC3)c(F)cc3c(=O)c(C(=O)O)cn1c23,-,MIC,-,H37Rv,-,0.5 µg/mL
Cc1nn2cc(C34CC5CC(CC(C5)C3)C4)nc2s1,-,MIC,resazurin,H37Rv,-,22.7 µM
Brc1ccc2nc(CCC3CCCCC3)[nH]c2c1,-,MIC90,visual reading / absorbance,H37Rv,-,2.44 µM
COP(=O)(/C=C/c1cc(C(=O)OCc2ccccc2)n(S(=O)(=O)c2ccccc2)c1)OC,-,inhibition,BACTEC,H37Rv,12.5 µg/mL,0%
CCc1nc2ncc(F)cn2c1C(=O)NCc1ccc(N2CCN(S(=O)(=O)C(F)(F)F)C(OC)=N2)c(F)c1,-,EC50,fluorescence,-,-,0.00447 µM
Nc1ccc(S(=O)(=O)c2ccc(N)cc2)cc1,-,MIC,-,BCG,-,>128 µg/mL
CCOC(=O)C1=C(C(=O)c2cccc3ccccc23)C(c2ccc([N+](=O)[O-])cc2)C(C(=O)c2cccc3ccccc23)=C(C(=O)OCC)N1,-,MIC bound,BACTEC,H37Rv,-,>12.5 µg/mL
CCc1nc2c(F)cc(C)cn2c1C(=O)NCc1ccc(N2CCN(S(=O)(=O)C(F)(F)F)C=N2)c(F)c1,-,EC50,fluorescence,-,-,0.000389 µM
CN(C)c1ccc(-n2c(=O)oc3c(Cl)cc(Cl)cc3c2=O)cc1,-,MIC,-,CNCTC MY331/88,-,>63.1 µM
CC(=O)NC(=O)NC1=NCCC(=O)N1CCc1c[nH]c2ccccc12,-,inhibition,BACTEC,H37Rv,12.5 µg/mL,11%
CCCCCCCCCCCC(=O)O/N=C1\c2ccccc2-c2c1c(N1CCN(c3ccccn3)CC1)nc1ccc(Br)cc21,-,MIC90,resazurin,H37Rv,-,>6.25 µg/mL
c1c(C23CC4CC(CC(C4)C2)C3)nc2sc(C3CCCCC3)nn12,-,MIC,resazurin,H37Rv,-,36.5 µM
O=C(O/N=C1\c2ccccc2-c2c1c(N1CCN(c3ccccn3)CC1)nc1ccc(Br)cc21)C1CC1,-,MIC90,resazurin,H37Rv,-,>6.25 µg/mL
CC1COc2c(N3CCN(C)CC3)c(F)cc3c(=O)c(C(=O)O)cn1c23,-,MIC50,-,21 strains,-,1 µg/mL
CC(=O)n1nc(Cl)c2cccnc2c1=O,-,inhibition,resazurin,H37Rv,6.25 µg/mL,-12%
CC1COc2c(N3CCN(C)CC3)c(F)cc3c(=O)c(C(=O)O)cn1c23,-,MIC50,-,25 strains,-,0.8 µg/mL
O=C(NCc1ccc(N2CCN(S(=O)(=O)C(F)(F)F)C=N2)c(F)c1)c1c(C(F)F)nc2cc(F)c(Cl)cn12,-,EC50,fluorescence,-,-,0.00417 µM
Oc1ccc(O)cc1,-,MIC,-,H37Ra,-,25 µg/mL
CC(=O)O/N=C1\c2ccccc2-c2c1c(N1CCN(c3ccccn3)CC1)nc1ccc(Br)cc21,-,MIC90,resazurin,H37Rv,-,>6.25 µg/mL
COc1cc2oc3ccccc3c(=O)c2cc1CSc1ccccc1N,-,inhibition,BACTEC,H37Rv,12.5 µg/mL,-15%
CC1(C)N=C(N)N=C(N)N1c1ccc(Cl)cc1,-,MIC,-,H37Rv,-,64 µg/mL
CCCCCCCCCCCO[C@H]1CCC23CC24CC[C@]2(C)[C@@H]([C@H](C)C/C=C/C(C)(C)O)CC[C@@]2(C)C4CCC3C1(C)C,-,MIC,-,-,-,>128 µg/mL
Cc1ccc(-n2c(=O)oc3c(Cl)cc(Cl)cc3c2=O)cc1,-,MIC,-,CNCTC MY331/88,-,15.8 µM
c1ccc(-c2nn3cc(C45CC6CC(CC(C6)C4)C5)nc3s2)cc1,-,MIC,resazurin,H37Rv,-,10.5 µM
CCN(CC)CCNC1=C(Cl)C(=O)c2ccccc2C1=O,-,inhibition,BACTEC,H37Rv,12.5 µg/mL,88%
O=c1oc2c(Br)cc(Br)cc2c(=O)n1-c1cccc([N+](=O)[O-])c1,-,MIC,-,CNCTC MY331/88,-,15.8 µM
Cc1c(CN2CCSCC2)cc(-c2ccccc2Cl)n1-c1ccccc1F,-,MIC,-,-,-,4 µg/mL
NNC(=O)c1ccncc1,-,MIC,-,BCG,-,0.06 µg/mL
COC1=NN(c2ccc(CNC(=O)c3c(C(F)F)nc4ccccn34)cc2)CCN1S(=O)(=O)C(F)(F)F,-,EC50,fluorescence,-,-,0.0832 µM
O=C(Nc1cccc(F)c1)c1cc([N+](=O)[O-])ccc1O,-,MIC,-,CNCTC MY331/88,-,31 µM
CC1(C)CC[C@]2(C(=O)O)CC[C@]3(C)C(CC[C@@H]4[C@@]5(C)C[C@H](O)CC(C)(C)[C@@H]5CC[C@]43C)[C@@H]2C1,-,MIC,resazurin,MMDO clinical isolate,-,50 µg/mL
CCC(C)CNCc1ccccc1,-,MIC,-,H37Rv,-,60 µg/mL
CC(C)(C)OC(=O)NC1(C(=O)O/N=C2\c3ccccc3-c3c2c(N2CCN(c4ccccn4)CC2)nc2ccc(Br)cc32)CCCC1,-,MIC90,resazurin,H37Rv,-,>6.25 µg/mL
COc1cc(O)c2c(c1)[C@H](O)C(O)CC1OC1C(=O)/C=C\CC(C)OC2=O,-,MIC bound,BACTEC,H37Rv,-,>12.5 µg/mL
CCCCCCCCCCCCCCNCCCO,-,MIC,-,H37Rv,-,12.5 µg/mL
CCCCCCCCC(CC)OC(=O)c1cnc(Cl)cn1,-,MIC,-,ATCC35801,-,1 µg/mL
CCCCCCCCCCCCCCNC(C)(C)CO,-,MIC,-,H37Rv,-,6.25 µg/mL
O=c1oc2c(Br)cc(Br)cc2c(=O)n1-c1ccc(Br)cc1,-,MIC,-,CNCTC MY331/88,-,31.6 µM
Cc1cc(O)c2c(c1)C(=O)C(c1c(C)cc3c(c1O)C(=O)C=CC3=O)=CC2=O,-,MIC,broth dilution,H37Ra ATCC 25177,-,16 µg/mL
C=C[C@]1(C)C=C2CC[C@@H]3[C@](C)(CCC[C@@]3(C)C(=O)O)[C@H]2CC1,-,MIC bound,BACTEC,H37Rv,-,≤128 µg/mL
COC1=CC2C(=NC(C)=C2C(=O)NCc2ccc(N3CCN(S(=O)(=O)C(F)(F)F)C(OC)=N3)cc2)N=C1,-,EC50,fluorescence,-,-,0.01 µM
CCOC(=O)c1ccc(NC(=O)c2cc(C)ccc2O)cc1,-,MIC,-,CNCTC MY331/88,-,>1000 µM
CC[C@@H](CO)NCCN[C@@H](CC)CO,-,MIC90,visual reading / absorbance,H37Rv,-,7.7 µM
COc1ccc(C2=C/C(=C3/C(=O)Oc4ccccc4C3=O)SS2)cc1,-,MIC bound,BACTEC,H37Rv,-,>12.5 µg/mL
CC[C@H](CC[C@@H](C)[C@H]1CCC2C3CC=C4C(C)(C)[C@@H](O[C@@H]5O[C@H](CO)[C@@H](O)[C@H](O)[C@H]5O)CC[C@]4(C)C3CC[C@@]21C)C(C)C,-,MIC,-,-,-,128 µg/mL
Brc1ccc(-c2nn3cc(C45CC6CC(CC(C6)C4)C5)nc3s2)cc1,-,MIC,resazurin,H37Rv,-,20 µM
CCCCCCCCCCCCCCC(=O)OC1(C)c2ccccc2-c2c1c(-n1ccnc1)nc1ccc(Br)cc21,-,MIC90,resazurin,H37Rv,-,>6.25 µg/mL
NNC(=O)C12CC3CC(CC(C3)C1)C2,-,MIC bound,BACTEC,H37Rv,-,>12.5 µg/mL
O=C1N=c2ccccc2=C1c1c(O)[nH]c2ccccc12,-,MIC90,resazurin,H37Rv,-,>32 µg/mL
CC1=CC[C@]2(C)CC(=O)[C@]3(C)C(=O)C=C(C(C)C)[C@@H]3[C@H]2CC1,-,EC50,resazurin,H37Rv,-,>6.25 µg/mL
CCCNCc1ccccc1,-,MIC,-,H37Rv,-,250 µg/mL
CCCCCCCC(OC(=O)c1cnc(Cl)cn1)C(C)(C)C,-,MIC,-,ATCC35801,-,8 µg/mL
O=C1C2=Nc3ccccc3C(c3c[nH]c4ccccc34)N2c2ccccc21,-,MIC90,resazurin,H37Rv,-,>50 µg/mL
Cc1c(C)c2c(c3c1Oc1cccc(O)c1C=C3)C=CC(C)(C)O2,-,MIC,-,H37Ra,-,6.25 µg/mL
COc1cc2c(cc1OC)[C@@]13CCN4CC5CCO[C@H]6CC(=O)N2[C@H]1[C@H]6[C@H]5C[C@H]43,-,MIC bound,BACTEC,H37Rv,-,>12.5 µg/mL
O=C(Nc1cccc([N+](=O)[O-])c1)c1cc(Br)ccc1O,-,MIC,-,CNCTC MY331/88,-,8 µM
NCC[C@H](O)C(=O)N[C@@H]1C[C@H](N)[C@@H](O[C@H]2O[C@H](CN)[C@@H](O)[C@H](O)[C@H]2O)[C@H](O)[C@H]1O[C@H]1O[C@H](CO)[C@@H](O)[C@H](N)[C@H]1O,-,MBC,-,-,-,1 µg/mL
S=C(N1CCN(c2ccccc2)CC1)N1CCN(c2ccccc2)CC1,-,MIC bound,resazurin,H37Rv,-,>6.25 µg/mL
NNC(=O)c1ccncc1,-,MIC,resazurin / absorbance,Clinical isolate 4851,-,0.03 µg/mL
OCCOCCN1CCN(CCCN2c3ccccc3Sc3ccc(C(F)(F)F)cc32)CC1,VERO,MIC,BACTEC,H37Rv,-,12.5 µg/mL
CCCCCC(CC)OC(=O)c1cnc(Cl)cn1,-,MIC,-,ATCC 27294,-,0.5 µg/mL
Nc1cc2nc3ccccc3nc2cc1N,-,MIC bound,BACTEC,H37Rv,-,>12.5 µg/mL
CC(C)N=c1cc2n(-c3ccc(Cl)cc3)c3ccccc3nc-2cc1Nc1ccc(Cl)cc1,-,MBC,-,BCG,-,0.25 µg/mL
CCOC(=O)CN1C(=S)N(c2ccc(C)cc2)C(=Nc2ccc(C)cc2)C1=Nc1ccc(C)cc1,-,MIC bound,BACTEC,H37Rv,-,>12.5 µg/mL
Cc1c(CN2CCN(C)CC2)cc(-c2ccccc2Cl)n1-c1cccc2ccccc12,-,MIC,-,-,-,4 µg/mL
CCC(=O)Oc1cnc2nc[nH]n2c1=O,-,inhibition,resazurin,H37Rv,6.25 µg/mL,32%
Nc1ccc(C(=O)O)c(O)c1,-,MIC,-,BCG,-,8 µg/mL
CCCCCCCCCCC/C=N/Nc1ccc([N+](=O)[O-])cn1,-,MIC bound,BACTEC,H37Rv,-,>12.5 µg/mL
CCCCNCc1cccc(I)c1,-,MIC,-,H37Rv,-,250 µg/mL
CC(C)OC(=O)Nc1ccc(-c2ccc(NC(=O)OC(C)C)cc2Cl)c(Cl)c1,-,MIC bound,BACTEC,H37Rv,-,>12.5 µg/mL
CCCCCCCCCCCCNCCO,-,MIC,-,H37Rv,-,6.25 µg/mL
CC1(C)OC2OC(C(O)CO)C(OC(=S)SSC(=S)OC3C(C(O)CO)OC4OC(C)(C)OC43)C2O1,-,inhibition,BACTEC,H37Rv,12.8 µg/mL,18%
CCCCNCc1ccc(OCCC)cc1,-,MIC,-,H37Rv,-,250 µg/mL

For reference, 5 entries again:

structure,cell line,endpoint,method,strain,dose,value
O=C(NCc1ccc(N2CCN(S(=O)(=O)C(F)(F)F)C=N2)c(F)c1)c1c(C(F)F)nc2cc(F)c(Cl)cn12,-,EC50,fluorescence,-,-,0.00417 µM
CCCNCc1ccccc1,-,MIC,-,H37Rv,-,250 µg/mL
Brc1ccc(-c2nn3cc(C45CC6CC(CC(C6)C4)C5)nc3s2)cc1,-,MIC,resazurin,H37Rv,-,20 µM
COP(=O)(/C=C/c1cc(C(=O)OCc2ccccc2)n(S(=O)(=O)c2ccccc2)c1)OC,-,inhibition,BACTEC,H37Rv,12.5 µg/mL,0%
CCCCCCCCCCCCCCC(=O)OC1(C)c2ccccc2-c2c1c(-n1ccnc1)nc1ccc(Br)cc21,-,MIC90,resazurin,H37Rv,-,>6.25 µg/mL